Compound potency records, mixed from different reports. Data source: NIAID ChemDB in PubChem.

Shared fields: tests in culture; organism: HIV-1; cell line: CEM + CEM-SS; read-out: EC50

Lines come from different laboratories, so protocols vary. An empty or dashed field is not shown. ECn: concentration that inhibits the pathogen or its effect by n%.

structure,strain,changes,method,value
CCCc1cc(=O)oc2c3c(c4c(c12)OC(C)(C)C=C4)O[C@H](C)C(C)(C)C3=O,IIIB,-,cytopathic effect / MTT,>19.3 µM
O=c1ccc(-c2ccsc2)c(O)c(O)c1O,LAI,-,RT activity,3 µM
Nc1ncnc2c1ncn2/C=C1/C[C@@H]1CO,-,-,-,>100 µM
CCCc1cc(=O)oc2c(C(=O)C(C)C(C)(C)O)c(O)c3c(c12)OC(C)(C)C=C3,IIIB,-,cytopathic effect / MTT,>27.1 µM
Cc1cccc([Se]c2c(C(C)C)c(=O)[nH]c(=O)n2COCc2ccccc2)c1,RF,-,cytopathic effect / XTT,0.011 µM
Cc1cn([C@H]2C[C@H](F)[C@@H](CO)O2)c(=O)[nH]c1=O,-,-,cytopathic effect,0.0025 µM
CC(C)c1cc(=O)oc2c3c(c4c(c12)OC(C)(C)C=C4)O[C@@H](C)[C@H](C)[C@@H]3N=[N+]=[N-],RF,-,-,1.6 µM
CCCc1cc(=O)oc2c3c(c4c(c12)OC(C)(C)C=C4)OC(C)(C)[C@H](C)[C@@H]3O,IIIB,-,cytopathic effect / MTT,>21.3 µM
Cc1cn([C@H]2C[C@H](N=[N+]=[N-])[C@@H](COP(=O)(OC(C)CSC(=O)C(C)(C)C)OC(C)CSC(=O)C(C)(C)C)O2)c(=O)[nH]c1=O,LAI,-,cytopathic effect / MTT,0.004 µM
Fc1cccc(F)c1C1SCc2nc3ccccc3n21,IIIB,-,cytopathic effect / XTT,1.28 µM
CC(C)=CCOc1cc(NC(=S)c2ccoc2C)ccc1Cl,RF,-,-,0.02 µM
CC(C)c1cc(=O)oc2c3c(c4c(c12)OC(C)(C)C=C4)C[C@@H](C)[C@H](C)[C@@H]3O,RF,-,-,0.2 µM
CC(C)=CCN1Cc2cc(Cl)cc3[nH]c(=S)n(c23)C[C@@H]1C,C,-,cytopathic effect / MTT,0.222 µM
CC(C)(C)NC(=O)c1ccccc1CCC(O)Cc1ccc2ccccc2c1C(=O)NC(C)(C)C,RF,-,cytopathic effect / MTT,>60 µM
CCCc1cc(=O)oc2c3c(c4c(c12)OC(C)(C)C=C4)O[C@H](CC)[C@H](C)[C@H]3O,IIIB,-,cytopathic effect / MTT,>11.6 µM
Cc1ccnc2c1NC(=O)c1cccnc1N2C1CC1,NL4-3,RT-V106A,cytopathic effect / XTT,>2 µM
CCCc1cc(=O)oc2c3c(c4c(c12)OC(C)(C)CC4)O[C@@H](C)[C@H](C)[C@@H]3O,RF,-,p24,0.11 µM
CCc1cc(COCc2ccccc2Br)c(OC)nc1C,LAI,-,RT activity,>10 µM
Cc1cn([C@H]2C[C@H](N=[N+]=[N-])[C@@H](CO)O2)c(=O)[nH]c1=O,LAI,-,RT activity,0.004 µM
CCc1cc(COCc2ccc3ccccc3c2)c(OC)nc1C,LAI,-,RT activity,>10 µM
CC(C)c1cc(=O)oc2c3c(c4c(c12)OC(C)(C)C=C4)OC(C)C(C)C3=O,SKI,-,-,0.4 µM
CCCc1cc(=O)oc2c3c(c4c(c12)OC(C)(C)C=C4)O[C@H](C)C(C)(C)[C@@H]3O,IIIB,-,cytopathic effect / MTT,>20.3 µM
Cc1ccccc1CNC(=O)[C@H]1N(C(=O)[C@@H](O)[C@H](Cc2ccccc2)NC(=O)c2cccc(O)c2C)CSC1(C)C,IIIB,-,cytopathic effect / XTT,0.049 µg/mL
O=S1CCCCS1,RF,-,cytopathic effect / XTT,>26.2 µM
Cc1cn([C@@H]2O[C@H](CO[Si](C)(C)C(C)(C)C)C3(OS(=O)(=O)C=C3N)[C@H]2O[Si](C)(C)C(C)(C)C)c(=O)n(C)c1=O,RF,-,cytopathic effect / XTT,0.04 µM
CC(C)c1cc(=O)oc2c3c(c4c(c12)OC(C)(C)C=C4)O[C@H](C)[C@@H](C)C3=O,IIIB,-,-,1.88 µM
CCC(C)[C@H]1C(=O)O[C@H](C(C)C)C(=O)N(C)[C@@H](C(C)CC)C(=O)O[C@H](C(C)C)C(=O)N(C)[C@@H](C(C)C)C(=O)O[C@H](C(C)C)C(=O)N1C,-,-,cytopathic effect / XTT,0.01 µg/mL
O=c1ccc(-c2ccc(C(F)(F)F)cc2)c(O)c(O)c1O,LAI,-,RT activity,5 µM
CCc1cc(COCc2ccc3ccccc3c2)c(=O)[nH]c1C,LAI,-,RT activity,>10 µM
O=c1c2ccccc2n2nnc3ccc(NCCCN4CCN(CCCNc5ccc6nnn7c8ccccc8c(=O)c5c67)CC4)c1c32,RF,-,cytopathic effect / XTT,0.0011 µM
CCc1c(Sc2ccccn2)n(COCc2ccccc2)c(=O)[nH]c1=O,UC82-R (RT-Y181C),RT-Y181C,cytopathic effect / XTT,4.1 µM
CCSCCCCCCCCCCCC(=O)OC[C@H]1O[C@@H](n2cc(C)c(=O)[nH]c2=O)C[C@@H]1F,-,-,cytopathic effect,0.016 µM
Cc1ccc(F)cc1CNC(=O)[C@H]1N(C(=O)[C@@H](O)[C@H](Cc2ccccc2)NC(=O)c2cccc(O)c2C)CSC1(C)C,IIIB,-,cytopathic effect / XTT,0.022 µg/mL
CCCCCCCCCCCCCC(=O)OC[C@H]1O[C@@H](n2cc(C)c(=O)[nH]c2=O)C[C@@H]1F,-,-,cytopathic effect,0.0445 µM
CCCc1cc(=O)oc2c3c(c4c(c12)OC(C)(C)C=C4)O[C@H](C)[C@@H](C)/C3=N/O,IIIB,-,cytopathic effect / MTT,>15.8 µM
CCc1c([Se]c2cc(C)cc(C)c2)n(COCc2ccccc2)c(=O)[nH]c1=O,RF,-,cytopathic effect / XTT,0.0063 µM
Cc1cn([C@H]2C[C@H](N=[N+]=[N-])[C@@H](CO)O2)c(=O)[nH]c1=O,NL4-3,RT-Y181C,cytopathic effect / XTT,0.01 µM
CCOCn1c([Se]c2cccc(C)c2)c(C(C)C)c(=O)[nH]c1=S,RF,-,cytopathic effect / XTT,0.047 µM
Cc1c(O)cccc1C(=O)N[C@@H](CSc1ccccc1)[C@H](O)CN1C[C@H]2CCCC[C@H]2C[C@H]1C(=O)NC(C)(C)CO,RF,-,cytopathic effect / MTT,0.0342 µM
CCc1cc(COCc2ccc(Br)cc2)c(OC)nc1C,LAI,-,RT activity,>10 µM
Nc1ccn([C@H]2CC[C@@H](CO)O2)c(=O)n1,IIIB,-,cytopathic effect / MTT,0.028 µM
OCC1(CO)CSSC1,RF,-,cytopathic effect / XTT,>200 µM
CCc1c([Se]c2cccc(C)c2)n(COCCO)c(=O)[nH]c1=O,RF,-,cytopathic effect / XTT,0.12 µM
CCc1c(C(=O)c2cc(C)cc(C)c2)n(CC2CC=CC2)c(=O)[nH]c1=O,SK1,-,cytopathic effect / XTT,0.002 µM
CCOCn1c([Se]c2cc(C)cc(C)c2)c(C(C)C)c(=O)[nH]c1=O,RF,-,cytopathic effect / XTT,0.0047 µM
Cc1cn([C@H]2C[C@H](N=[N+]=[N-])[C@@H](CO)O2)c(=O)[nH]c1=O,LAI,-,RT activity,0.002 µM
COCCCCCCCCCCCC(=O)OC[C@H]1O[C@@H](n2cc(C)c(=O)[nH]c2=O)C[C@@H]1F,-,-,cytopathic effect,0.0038 µM
CC(C)=CCN1Cc2cc(Cl)cc3[nH]c(=S)n(c23)C[C@@H]1C,SK1,-,RT activity,0.031 µM
CC(C)c1c([Se]c2ccccc2)n(COCc2ccccc2)c(=O)[nH]c1=O,RF,-,cytopathic effect / XTT,0.013 µM
CCc1cc(COCc2ccc(C)cc2)c(OC)nc1C,LAI,-,RT activity,>10 µM
CCCc1cc(=O)oc2c3c(c4c(c12)OC(C)(C)CC4)O[C@H](C)[C@@H](C)[C@@H]3O,RF,-,syncytia,0.17 µM
CC(=O)Oc1cc(OC(C)=O)c(OC(C)=O)c(=O)c(OC(C)=O)c1,LAI,-,RT activity,5 µM
O=S1C[C@@H](O)[C@@H](O)CS1,RF,-,cytopathic effect / XTT,>103.3 µM
Nc1ncnc2c1ncn2CCOCP(=O)(O)O,-,-,cytopathic effect / MTT,>20 µM
C/C=C/CSc1cc(NC(=S)c2ccsc2C)ccc1Cl,Diphenyl sulfone-resistant (RT-Y181C),RT-Y181C,cytopathic effect / XTT,>2 µM
Fc1cccc(F)c1[C@@H]1SCc2nc3ccccc3n21,RF,-,cytopathic effect / XTT,5.8 µM
Nc1ncnc2c1ncn2/C=C1/C[C@H]1CO,-,-,-,11 µM
Nc1ccn([C@H]2CC[C@@H](CO)O2)c(=O)n1,RF,-,cytopathic effect / XTT,0.11 µM
Cc1occc1C(=S)Nc1ccc(Cl)c(/C=N/OC(C)(C)C)c1,UC38-RS (RT-Y181C),RT-Y181C,cytopathic effect / XTT,1.3 µM
CN1N=C(N)c2cn([C@@H]3O[C@H](COP(=O)(O)O)[C@@H](O)[C@H]3O)c3ncnc1c23,SK1,-,XTT,0.09 µM
COc1ccc2c(c1)C1(c3ccccc3)SCCN1C2=O,IIIB,-,cytopathic effect / MTT,1.18 µM

Repeating the final 4 entries:

| structure | strain | changes | method | value |
|---|---|---|---|---|
| Nc1ccn([C@H]2CC[C@@H](CO)O2)c(=O)n1 | RF | - | cytopathic effect / XTT | 0.11 µM |
| Cc1occc1C(=S)Nc1ccc(Cl)c(/C=N/OC(C)(C)C)c1 | UC38-RS (RT-Y181C) | RT-Y181C | cytopathic effect / XTT | 1.3 µM |
| CN1N=C(N)c2cn([C@@H]3O[C@H](COP(=O)(O)O)[C@@H](O)[C@H]3O)c3ncnc1c23 | SK1 | - | XTT | 0.09 µM |
| COc1ccc2c(c1)C1(c3ccccc3)SCCN1C2=O | IIIB | - | cytopathic effect / MTT | 1.18 µM |